Anti-infective test results gathered from many reports (values: NIAID ChemDB through PubChem).

All rows: tests on isolated targets; species: HIV-1; protein: Protease

Neighbouring rows are from separate reports. ICn is the concentration giving n% inhibition. Blank or dashed fields: not listed here.

structure	conditions	read-out	read by	strain or isolate	value
O=C(CCc1ccccc1)N1C[C@@H](O)[C@@H](Cc2ccccc2)N(Cc2ccccc2)C(=O)N1Cc1ccc2[nH]ncc2c1	pH 7.0	IC50	fluorescence		<0.0005 µM
CC(C)(C)OC(=O)NN(Cc1cnco1)C[C@H](O)[C@H](Cc1ccccc1)NC(=O)OCc1ccccc1		IC50	substrate cleavage		0.016 µM
CC(=O)C[C@H](NC(=O)COc1cccc2ccccc12)C(=O)N[C@@H](Cc1ccccc1)[C@H](O)C(=O)N1CSC[C@H]1C(=O)NC(C)(C)C		IC50			>0.05 µM
CC[C@H](C)[C@H](NC(=O)[C@@H](NC(=O)[C@H](Cc1ccccc1)NC(C)=O)[C@@H](C)CC)[C@H](O)[C@@H](O)[C@H](CC1CCCCC1)NC(=O)[C@H](CCC(=O)O)NC(=O)[C@H](Cc1ccccc1)NC(C)=O		IC50			0.35 µM
CC[C@@H](C)[C@H](NC(=O)[C@@H]1CCCN1C(=O)[C@@H](O)[C@H](Cc1ccccc1)NC(=O)CCc1ccccc1)C(=O)N[C@H](C(N)=O)C(C)C		IC50			>5 µM
CC(C)(C)NC(=O)[C@H](Cc1ccccc1)NC(=O)CN(O)C(=O)[C@H](Cc1ccccc1)NC(=O)OCC1c2ccccc2-c2ccccc21		IC50	HPLC		0.93 µM
CC1=N[C@H](CC(C)C)C(=O)N(Cc2ccc(-c3ccccc3)cc2)c2cc(C(=O)OC(C)(C)C)ccc21		Ki	substrate cleavage		>200 µM
CCC(C)[C@H](NC(=O)[C@H](Cc1c[nH]c2ccccc12)NC(C)=O)[C@H](O)[C@@H](O)[C@H](CC1CCCCC1)NC(=O)[C@H](Cc1c[nH]c2ccccc12)NC(C)=O		IC50			12 µM
CC(C)(C)OC(=O)NN(Cc1ccc(F)cc1)C[C@H](O)[C@H](Cc1ccccc1)NC(=O)OCc1ccccc1		IC50	substrate cleavage		0.013 µM
CC(C)CN(C[C@@H](O)[C@H](Cc1ccccc1)NC(=O)O[C@H]1CO[C@H]2[C@@H]1OC[C@H]2O)S(=O)(=O)c1ccc(N)cc1		IC50	fluorescence		0.00036 µM
CC(C)(C)OC(=O)N[C@@H](Cc1ccc2ccccc2c1)C(=O)NCC[C@@H](CO)NC(=O)[C@H](Cc1ccc2ccccc2c1)NC(=O)OC(C)(C)C		IC50	HPLC		>5 µM
Cc1c(O)cccc1C(=O)N(O)[C@@H](Cc1ccccc1)C(=O)N1CCC[C@@H]1C(=O)NC(C)(C)C		IC50	HPLC		1.02 µM
COc1cc(CN2C(=O)N(Cc3ccc(O)c(OC)c3)N(C(=O)CC(C)C)C[C@@H](O)[C@H]2Cc2ccccc2)ccc1O		IC50	fluorescence		<0.0005 µM
Cc1c(O)cccc1C(=O)N[C@@H](Cc1ccccc1)C(=O)N(O)CC(=O)N1CCC[C@@H]1C(=O)NC(C)(C)C		IC50	HPLC		2.07 µM
CC(C)c1nc(CN(C)C(=O)N[C@@H](C(=O)NN(Cc2ccccc2)C[C@H](O)[C@H](Cc2ccccc2)NC(=O)OCc2cncs2)C(C)C)cs1		IC50	substrate cleavage		<0.0005 µM
Cc1cc2c(cc1C)N=Cc1c(ccc3ccccc13)OCCOc1c3cc(C(C)(C)C)cc1Cc1cc(C(C)(C)C)cc(c1O)Cc1cc(C(C)(C)C)cc(c1OCCOc1ccc4ccccc4c1C=N2)Cc1cc(C(C)(C)C)cc(c1O)C3		Ki	FRET / fluorescence		28.8 µM
CC(C)(C)OC(=O)NN(Cc1cnoc1)C[C@H](O)[C@H](Cc1ccccc1)NC(=O)OCc1ccccc1		IC50	substrate cleavage		0.011 µM
C=CC(C)(C)c1[nH]c2ccccc2c1C1=C(O)C(=O)C(c2c(C(C)(C)C=C)[nH]c3ccccc23)=C(O)C1=O		IC50		WT	2.5 µM
CC(=O)ONc1ccc(S(=O)(=O)N(CC(C)C)C[C@@H](O)[C@H](Cc2ccccc2)NC(=O)CN2C(=O)c3ccccc3S2(=O)=O)cc1		IC50			0.02 µM
CC(C)c1nc(CN(C)C(=O)N[C@@H](C(=O)NN(Cc2ccccc2)C[C@H](O)[C@H](Cc2ccccc2)NC(=O)OCc2cncs2)C(C)C)co1		IC50	substrate cleavage		<0.0005 µM
O=C(N[C@@H](Cc1ccccc1)[C@H](O)[C@H](O)[C@@H](Cc1ccccc1)NC(=O)c1ccc(O)cc1)c1ccc(O)cc1		Ki	substrate cleavage		0.276 µM
COc1cc(CN2C(=O)N(Cc3ccc(O)c(OC)c3)N(C(=O)CCc3ccco3)C[C@@H](O)[C@H]2Cc2ccccc2)ccc1O		IC50	fluorescence		<0.0005 µM
CC(C)(C)c1cc2c(O)c(c1)Cc1cc(C(C)(C)C)cc3c1OCCOc1ccc4ccccc4c1C=NC(=S)N=Cc1c(ccc4ccccc14)OCCOc1c(cc(C(C)(C)C)cc1Cc1cc(C(C)(C)C)cc(c1O)C3)C2		Ki	FRET / fluorescence		28 µM
CC(=O)N[C@@H](CSC(=O)[C@]1([C@@H](O)CC(C)C)NC(=O)[C@H](C)[C@@H]1O)C(=O)O		IC50			>100 µM
N[C@@H](Cc1ccccc1)C(=O)N[C@@H](CO)C(=O)N[C@@H](Cc1ccccc1)[C@H](O)C(=O)NCC1CCCCC1		IC50			<1000 µM
CC(C)(C)N[C@@H](Cc1ccccc1)[C@H](O)[C@@H](O)[C@H](Cc1ccccc1)NC(=O)[C@H](NC(=O)COc1ccccc1)c1cccs1		IC50			0.3 µM
CC(C)(C)OC(=O)N[C@H](C(=O)NCC[C@@H](CO)NC(=O)[C@@H](NC(=O)OC(C)(C)C)C(O)c1ccccc1)C(O)c1ccccc1		IC50	HPLC		1.38 µM
COc1cc(CN2C(=O)N(Cc3ccc(O)c(OC)c3)N(C(=O)COc3ccccc3)C[C@@H](O)[C@H]2Cc2ccccc2)ccc1O		IC50	fluorescence		<0.0005 µM
CC(C)(C)NC(=O)[C@@H]1C[C@@H](C2CCCCC2)CN1C(=O)[C@@H](O)[C@H](Cc1ccccc1)NC(=O)[C@H](CC(N)=O)NC(=O)OCc1ccccc1		IC50			>0.05 µM
O=C(N[C@@H](Cc1ccccc1)[C@@H](O)[C@@H](O)[C@@H](Cc1ccccc1)NC(=O)c1ccccc1)c1ccccc1		Ki	substrate cleavage		0.042 µM
N/C(=N/O)c1cccc(CN2C(=O)N(Cc3ccccc3)N(C(=O)CCc3ccccc3)C[C@@H](O)[C@H]2Cc2ccccc2)c1	pH 7.0	IC50	fluorescence		<0.0005 µM
CC(=O)ONc1ccc(S(=O)(=O)N(CC(C)C)C[C@@H](O)[C@H](Cc2ccccc2)NC(=O)CCn2c(=O)oc3ccccc32)cc1		IC50			0.005 µM
CC(C)(C)NC(=O)[C@@H]1CCCN1C(=O)[C@@H](O)[C@H](CC1CCCCC1)NC(=O)[C@H](CC(N)=O)NC(=O)COc1cccc2ccccc12		IC50			<0.05 µM
CC(=O)ONc1ccc(S(=O)(=O)N(CC(C)C)C[C@@H](O)[C@H](Cc2ccccc2)NC(=O)CCCc2c[nH]c3ccccc23)cc1		IC50			0.06 µM
CC(C)C[C@H](NC(=O)OC(C)(C)C)C(=O)NCC[C@@H](CO)NC(=O)[C@H](CC(C)C)NC(=O)OC(C)(C)C		IC50	HPLC		2.4 µM
O=C(N[C@@H](Cc1ccccc1)C(=O)NCC[C@@H](CO)NC(=O)[C@H](Cc1ccccc1)NC(=O)OCC1c2ccccc2-c2ccccc21)OCC1c2ccccc2-c2ccccc21		IC50	HPLC		0.16 µM
Nc1n[nH]c2ccc(CN3C(=O)N(Cc4ccccc4)[C@H](Cc4ccccc4)[C@H](O)CN3C(=O)CCc3ccccc3)cc12	pH 7.0	IC50	fluorescence		~0.0005 µM
O=C(N[C@@H](Cc1ccccc1)C(=O)NCCCC[C@@H](CO)NC(=O)[C@H](Cc1ccccc1)NC(=O)OCC1c2ccccc2-c2ccccc21)OCC1c2ccccc2-c2ccccc21		IC50	HPLC		1.39 µM